Anti-infective test results gathered from many reports (values: NIAID ChemDB through PubChem).

Shared fields: growth or infection tests; organism: Herpes simplex virus 2; read by: cytopathic effect; endpoint: EC50

a–b is a range or a potency band. ECn: concentration that inhibits the pathogen or its effect by n%. An empty or dashed field is not shown. Lines come from different laboratories, so protocols vary.

{"smiles": "O=c1c2ncn(COCCO)c2nc2[nH]c(-c3ccccc3)c(-c3ccc(C(c4ccccc4)c4ccccc4)cc3)n12", "strain": "196", "value": ">16 µg/mL"}
{"smiles": "Nc1nc(=O)n([C@@H]2O[C@H](CO)[C@@H](O)[C@@H]2F)cc1I", "cell line": "VERO", "strain": "K979", "value": "<0.1 µg/mL"}
{"smiles": "NC1CCCON2CCc3c([nH]c4ccccc34)[C@H]12", "cell line": "PRK", "strain": "G", "value": "2 µg/mL"}
{"smiles": "OC[C@H]1O[C@@H](c2cc(C#CI)c(F)cc2F)C[C@@H]1O", "cell line": "E6SM", "strain": "G", "value": ">400 µg/mL"}
{"smiles": "COc1ccc(-c2cn3c(=O)c4ncn(COC(CO)CO)c4nc3[nH]2)cc1", "strain": "196", "value": "0.08 µg/mL"}
{"smiles": "Nc1ncc2ncn(C[C@@H](CO)OCP(=O)(O)O)c2n1", "cell line": "E6SM", "strain": "G 196 LYONS", "value": "23 µM"}
{"smiles": "Cc1c(-c2ccc(C(F)(F)F)cc2)[nH]c2nc3c(ncn3COCCO)c(=O)n12", "cell line": "HEL", "strain": "G", "value": "9.6 µg/mL"}
{"smiles": "O=c1[nH]c(=O)n([C@@H]2OC3COP(=O)(O)OC3[C@H]2O)cc1I", "cell line": "PRK", "strain": "196", "value": ">400 µg/mL"}
{"smiles": "NC1CSCON2CCc3c([nH]c4ccccc34)[C@H]12", "cell line": "PRK", "strain": "G", "value": "0.2 µg/mL"}
{"smiles": "Cc1cn([C@@H]2O[C@H](CO)[C@@H](O)[C@@H]2O)c(=O)[nH]c1=O", "cell line": "HELF", "strain": "MS", "value": "0.66 µg/mL"}
{"smiles": "CCc1cn([C@H]2C[C@H](O)[C@@H](CO)O2)c(=O)[nH]c1=O", "cell line": "Primary rabbit kidney cells", "strain": "Strain 196", "value": "0.7 µg/mL"}
{"smiles": "O=c1[nH]c(=O)n([C@H]2C[C@H](O)[C@@H](CO)O2)cc1/C=C/Br", "cell line": "PRK", "strain": "G", "value": "2 µg/mL"}
{"smiles": "OCC(=CCn1cnc2c(Cl)ncnc21)CO", "cell line": "CCL18", "value": ">100 µg/mL"}
{"smiles": "O=c1[nH]c(=O)n([C@H]2C[C@H](O)[C@@H](COP(=O)(O)O)O2)cc1/C=C/c1ccccc1", "cell line": "PRK", "strain": "LYONS", "value": "70 µg/mL"}
{"smiles": "O=c1[nH]c(=O)n([C@H]2C[C@H](O)[C@@H](CO)O2)cc1CCCl", "cell line": "VERO", "strain": "K979", "value": "<30 µg/mL"}
{"smiles": "C/C(=C\\Cn1cnc2c(=O)[nH]c(N)nc21)CO", "cell line": "CCL18", "value": ">100 µg/mL"}
{"smiles": "CC(=O)OCCOCn1cnc2c(=O)n3cc(-c4ccc5ccccc5c4)[nH]c3nc21", "strain": "LYONS", "value": ">16 µg/mL"}
{"smiles": "O=c1[nH]c(=O)n([C@@H]2O[C@H](CO)[C@@H](O)[C@@H]2O)cc1/C=C/Br", "cell line": "PRK", "strain": "G", "value": "15 µg/mL"}
{"smiles": "O=c1[nH]c(=O)n([C@H]2C[C@H](O)[C@@H](CO)O2)cc1I", "cell line": "Primary rabbit kidney cells", "strain": "Strain 196", "value": "0.7 µg/mL"}
{"smiles": "[N-]=[N+]=NC(CBr)c1cc([C@H]2C[C@H](O)[C@@H](CO)O2)c(F)cc1F", "cell line": "E6SM", "strain": "LYONS", "value": ">400 µg/mL"}
{"smiles": "Nc1ncnc2c1ncn2C[C@H](CO)OCP(=O)(O)O", "cell line": "E6SM", "strain": "G 196 LYONS", "value": "81 µM"}
{"smiles": "Nc1ncnc2c1ncn2C[C@H](O)CO", "cell line": "PRK", "strain": "196", "value": ">400 µg/mL"}
{"smiles": "Nc1nc2c(ncn2COCCO)c(=O)[nH]1", "cell line": "HFF", "strain": "T7788 (acyclovir-susceptible)", "value": "2.5 µg/mL"}
{"smiles": "Nc1ncnc2c1ncn2CCCC(O)CF", "cell line": "ESM", "strain": "G", "value": ">400 µg/mL"}
{"smiles": "C=CCc1cn([C@H]2C[C@H](O)[C@@H](CO)O2)c(=O)[nH]c1=O", "cell line": "BHK-21", "strain": "3345", "value": "32 µg/mL"}
{"smiles": "CC[Si]1(C(C)C)O[C@H]2[C@@H](O)[C@H](c3ccccc3)O[C@@H]2CO[Si](C(C)C)(C(C)C)O1", "cell line": "E6SM", "strain": "G", "value": ">3.2 µg/mL"}
{"smiles": "C/C(=N/Nc1nc(-c2ccc(Br)cc2)cs1)c1ccc(NC(=O)CN2C(=O)c3ccccc3S2(=O)=O)cc1", "cell line": "HEL", "strain": "G", "value": ">20 µM"}
{"smiles": "Nc1nc2c(ncn2C[C@@H](CF)OCP(=O)(O)O)c(=O)[nH]1", "cell line": "E6SM", "strain": "G 196 LYONS", "value": "218 µM"}
{"smiles": "O=c1[nH]c(=O)n([C@H]2C[C@H](O)[C@@H](CO)O2)cc1I", "cell line": "HEP-2", "strain": "K979", "value": "<0.3 µg/mL"}
{"smiles": "O=c1c2ncn(COC(CO)CO)c2nc2[nH]c(-c3ccc(F)cc3)cn12", "cell line": "HEL", "strain": "196", "value": "1.92 µg/mL"}
{"smiles": "Nc1ncnc2c1ncn2[C@@H]1O[C@H](CO)[C@@H](O)[C@@H]1O", "cell line": "VERO", "value": "10 µg/mL"}
{"smiles": "O=c1[nH]c(=O)n([C@H]2C[C@H](O)[C@@H](COP(=O)(O)O)O2)cc1CCc1ccccc1", "cell line": "PRK", "strain": "196", "value": "10 µg/mL"}
{"smiles": "O=c1[nH]c(=O)n([C@@H]2O[C@H](CO)[C@@H](O)[C@@H]2F)cc1I", "cell line": "VERO", "strain": "K979", "value": "<0.1 µg/mL"}
{"smiles": "C/C(=N/Nc1nc(-c2ccc(Cl)cc2)cs1)c1ccc(NC(=O)CN2C(=O)c3ccccc3S2(=O)=O)cc1", "cell line": "HEL", "strain": "G", "value": ">20 µM"}
{"smiles": "Nc1ncnc2c1ncn2C/C=C(/CO)c1ccccc1", "cell line": "CCL18", "value": ">100 µg/mL"}
{"smiles": "O=c1[nH]c(=O)n([C@H]2C[C@H](O)[C@@H](CO)O2)cc1/C=C/Br", "cell line": "PRK", "strain": "LYONS", "value": "3.1 µg/mL"}
{"smiles": "Nc1nc2c(ncn2C[C@H](CF)OCP(=O)(O)O)c(=O)[nH]1", "cell line": "E6SM", "strain": "G 196 LYONS", "value": "165 µM"}
{"smiles": "CO[C@@H]1[C@H](O)[C@@H](CO)O[C@H]1c1ccccc1", "cell line": "E6SM", "strain": "G", "value": ">400 µg/mL"}
{"smiles": "C/C=C/c1cn([C@H]2C[C@H](O)[C@@H](CO)O2)c(=O)[nH]c1=O", "cell line": "BHK-21", "strain": "3345", "value": "16 µg/mL"}
{"smiles": "CCc1cn([C@H]2C[C@H](O)[C@@H](CO)O2)c(=O)[nH]c1=O", "cell line": "PRK", "strain": "LYONS", "value": "0.2 µg/mL"}
{"smiles": "CCc1cn([C@H]2C[C@H](O)[C@@H](CO)O2)c(=O)[nH]c1=O", "cell line": "BHK-21", "strain": "3345", "value": "1 µg/mL"}
{"smiles": "Cc1cn(C(CCO)SCCO)c(=O)[nH]c1=O", "cell line": "HFF", "value": ">200 µM"}
{"smiles": "CCCc1cn([C@H]2C[C@H](O)[C@@H](CO)O2)c(=O)[nH]c1=O", "cell line": "PRK", "strain": "G", "value": "9.3 µg/mL"}
{"smiles": "Nc1ncnc2c1ncn2C[C@H](CF)OCP(=O)(O)O", "cell line": "E6SM", "strain": "G 196 LYONS", "value": ">1200 µM"}
{"smiles": "C/C(=N/Nc1nc(-c2ccc(C)cc2)cs1)c1ccc(NC(=O)CN2C(=O)c3ccccc3S2(=O)=O)cc1", "cell line": "HEL", "strain": "G", "value": "20 µM"}
{"smiles": "Cc1cn(CCCC(O)CF)c(=O)[nH]c1=O", "cell line": "ESM", "strain": "G", "value": ">400 µg/mL"}
{"smiles": "Nc1nc2c(ncn2[C@@H]2CO[C@H](CO)[C@@H](O)C2)c(=O)[nH]1", "cell line": "VERO", "value": "0.1–1 µM"}
{"smiles": "COc1ccc(-c2[nH]c3nc4c(ncn4COCCO)c(=O)n3c2-c2ccc(C(c3ccccc3)c3ccccc3)cc2)cc1", "strain": "LYONS", "value": ">16 µg/mL"}
{"smiles": "C=C/C=C/c1cn([C@H]2C[C@H](O)[C@@H](CO)O2)c(=O)[nH]c1=O", "cell line": "BHK-21", "strain": "3345", "value": "16 µg/mL"}
{"smiles": "Nc1nc2c(ncn2CC=C(CO)CO)c(=O)[nH]1", "cell line": "CCL18", "value": "11.7 µg/mL"}
{"smiles": "NC1CSCCN2CCc3c([nH]c4ccccc34)[C@H]12", "cell line": "E6SM", "strain": "G", "value": "2 µg/mL"}
{"smiles": "O=c1[nH]c(=O)n(C2CC(O)C(CO)O2)cc1CCCCl", "cell line": "PRK", "strain": "G", "value": "8 µg/mL"}
{"smiles": "NC1=NC2C(C=CN2CC(CO)CCO)C(=O)N1", "cell line": "VERO", "value": "0.01–0.1 µM"}
{"smiles": "Nc1ccn(C(CF)CCCO)c(=O)n1", "cell line": "ESM", "strain": "G", "value": ">400 µg/mL"}
{"smiles": "Nc1nc2c(ncn2[C@@H]2C=C[C@H](CO)CC2)c(=O)[nH]1", "cell line": "VERO", "value": "0.1–1 µM"}
{"smiles": "CC(C)NS(=O)(=O)c1ccccc1C(=O)N/N=C/c1ccc(Br)cc1", "cell line": "HEL", "strain": "G", "value": ">100 µM"}
{"smiles": "CCc1cn([C@H]2C[C@H](O)[C@@H](COP(=O)(O)O)O2)c(=O)[nH]c1=O", "cell line": "PRK", "strain": "LYONS", "value": "0.4 µg/mL"}
{"smiles": "C/C(=C\\Cn1cnc2c(=O)[nH]cnc21)CO", "cell line": "CCL18", "value": ">100 µg/mL"}
{"smiles": "Nc1ncc2ncn(C[C@H](CF)OCP(=O)(O)O)c2n1", "cell line": "E6SM", "strain": "G 196 LYONS", "value": ">600 µM"}
{"smiles": "O=c1[nH]cnc2c1ncn2C/C=C(/CO)c1ccccc1", "cell line": "CCL18", "value": ">100 µg/mL"}
{"smiles": "CCc1cc([C@H]2C[C@H](O)[C@@H](CO)O2)c(F)cc1F", "cell line": "E6SM", "strain": "LYONS", "value": ">400 µg/mL"}
{"smiles": "Nc1nc2c(ncn2COCCO)c(=O)[nH]1", "cell line": "VERO", "value": "1.82 µM"}
{"smiles": "O=c1c2ncn(COC(CO)CO)c2[nH]c2nccn12", "strain": "LYONS", "value": "0.7 µg/mL"}
{"smiles": "COC(=O)C[C@@H](SCCO)n1cnc2c(Cl)nc(N)nc21", "cell line": "HFF", "value": ">200 µM"}
{"smiles": "O=c1c2ncn(COC(CO)CO)c2nc2[nH]c(-c3ccc(C(F)(F)F)cc3)cn12", "cell line": "HEL", "strain": "196", "value": "9.6 µg/mL"}
{"smiles": "Nc1ncnc2c1ncn2C[C@@H](CO)OCP(=O)(O)O", "cell line": "E6SM", "strain": "G 196 LYONS", "value": "1.5 µM"}
{"smiles": "Cc1cn(C(CCN=[N+]=[N-])OCCO)c(=O)[nH]c1=O", "cell line": "HFF", "value": ">200 µM"}

Repeating the final 10 entries:

| smiles | cell line | strain | value |
|---|---|---|---|
| C/C(=C\Cn1cnc2c(=O)[nH]cnc21)CO | CCL18 | - | >100 µg/mL |
| Nc1ncc2ncn(C[C@H](CF)OCP(=O)(O)O)c2n1 | E6SM | G 196 LYONS | >600 µM |
| O=c1[nH]cnc2c1ncn2C/C=C(/CO)c1ccccc1 | CCL18 | - | >100 µg/mL |
| CCc1cc([C@H]2C[C@H](O)[C@@H](CO)O2)c(F)cc1F | E6SM | LYONS | >400 µg/mL |
| Nc1nc2c(ncn2COCCO)c(=O)[nH]1 | VERO | - | 1.82 µM |
| O=c1c2ncn(COC(CO)CO)c2[nH]c2nccn12 | - | LYONS | 0.7 µg/mL |
| COC(=O)C[C@@H](SCCO)n1cnc2c(Cl)nc(N)nc21 | HFF | - | >200 µM |
| O=c1c2ncn(COC(CO)CO)c2nc2[nH]c(-c3ccc(C(F)(F)F)cc3)cn12 | HEL | 196 | 9.6 µg/mL |
| Nc1ncnc2c1ncn2C[C@@H](CO)OCP(=O)(O)O | E6SM | G 196 LYONS | 1.5 µM |
| Cc1cn(C(CCN=[N+]=[N-])OCCO)c(=O)[nH]c1=O | HFF | - | >200 µM |